# Source: ChEMBL document CHEMBL1212713, “Molecular docking and ligand specificity in fragment-based inhibitor discovery” (Nat Chem Biol, 2009)
# Test: Inhibition of beta lactamase CTX-M assessed as hydrolysis of beta lactam up to 5 mM by spectrometry analysis
structure (smiles),measurement,value
CC(C)OP(=O)(NCCC(=O)O)OC(C)C,inhibition,inactive

# Calls of active or inactive are those of the source. How the calls were made is not given here.
